Measured values from patent US9663478B2, “Benzotriazine oxides as drugs targeting Mycobacterium tuberculosis” (priority 2011, dated 2017).

System: Vero cells
Experiment: Cytotoxicity against Vero cells (Cell Titer-Glo)
Settings: for SI (CC50/MIC): Tables 1-4 and text; for SI: ratio of the CC50/TB-MIC, Tables P1-P3

CC(C)(C)Nc1n[n+]([O-])c2ccccc2[n+]1[O-] [Compound 8c, 3-(tert-butylamino)benzo[e][1,2,4]triazine 1,4-dioxide]
SI (CC50/MIC): 6.4

[O-][n+]1nc(NC2CCC2)[n+]([O-])c2cc3c(cc21)CCC3 [Compound 15fd, Cyclobutyl-(5,8-dioxy-2,3-dihydro-1H-5,6,8-triaza-cyclopenta[b]naphthalen-7-yl)-amine]
SI (CC50/MIC): 54

CCNc1n[n+]([O-])c2cc(C)c(OC)cc2[n+]1[O-] [Compound 15ga, 3-(ethylamino)-6-methoxy-7-methylbenzo[e][1,2,4]triazine 1,4-dioxide]
SI (CC50/MIC): >40

CCN(CC)c1n[n+]([O-])c2ccccc2[n+]1[O-] [Compound 17o, 3-(diethylamino)benzo[e][1,2,4]triazine 1,4-dioxide]
SI (CC50/MIC): 40

[O-][n+]1nc(N2CCCC2)[n+]([O-])c2ccccc21 [Compound 17q, 3-(pyrrolidin-1-yl)benzo[e][1,2,4]triazine 1,4-dioxide]
SI (CC50/MIC): 56

CN(Cc1ccccc1)c1n[n+]([O-])c2cc3c(cc2[n+]1[O-])CCC3 [Compound 20t, 3-(benzyl(methyl)amino)-7,8-dihydro-6H-indeno[5,6-e][1,2,4]triazine 1,4-dioxide]
SI (CC50/MIC): 53

CN(CCc1ccccc1)c1n[n+]([O-])c2cc3c(cc2[n+]1[O-])CCC3 [Compound 20u, 3-(methyl(phenethyl)amino)-7,8-dihydro-6H-indeno[5,6-e][1,2,4]triazine 1,4-dioxide]
SI (CC50/MIC): 130

O=S1(=O)CCN(c2n[n+]([O-])c3cc4c(cc3[n+]2[O-])CCC4)CC1 [Compound 20v, 3-(thiomorpholinosulfone-1-yl)-7,8-dihydro-6H-indeno[5,6-e][1,2,4]triazine 1,4-dioxide]
SI (CC50/MIC): 3.4

CC1CCCCN1c1n[n+]([O-])c2cc3c(cc2[n+]1[O-])CCC3 (stereo not shown) [Compound 20w, 3-(2-methylpiperidin-1-yl)-7,8-dihydro-6H-indeno[5,6-e][1,2,4]triazine 1,4-dioxide]
SI (CC50/MIC): >40

CCN(CC)c1n[n+]([O-])c2ccccc2[n+]1[O-] [SRI-009728]
SI: 39.6

[O-][n+]1nc(NC2CCC2)[n+]([O-])c2cc3c(cc21)CCC3 [SRI-012403]
SI: 53.8

CCNc1n[n+]([O-])c2cc(C)c(OC)cc2[n+]1[O-] [SRI-012468]
SI: 40

[O-][n+]1nc(N2CCCC2)[n+]([O-])c2ccccc21 [SRI-012495]
SI: 55.8

CCNc1n[n+]([O-])c2cc3c(cc2[n+]1[O-])CCCC3 [SRI-012496]
SI: 17.4

[O-][n+]1nc(NC2CCC2)[n+]([O-])c2cc3c(cc21)CCCC3 [SRI-012497]
SI: 40.0

[O-][n+]1nc(NC2CC3CCC2C3)[n+]([O-])c2cc3c(cc21)CCCC3 (stereo not shown) [SRI-012498]
SI: 40.0
